Test results reported in PMC8954747 (Viruses, 2022).

Chains of the proteins cited; added tags and fusions are not shown.
UniProt Q14160, whole entry, looked up: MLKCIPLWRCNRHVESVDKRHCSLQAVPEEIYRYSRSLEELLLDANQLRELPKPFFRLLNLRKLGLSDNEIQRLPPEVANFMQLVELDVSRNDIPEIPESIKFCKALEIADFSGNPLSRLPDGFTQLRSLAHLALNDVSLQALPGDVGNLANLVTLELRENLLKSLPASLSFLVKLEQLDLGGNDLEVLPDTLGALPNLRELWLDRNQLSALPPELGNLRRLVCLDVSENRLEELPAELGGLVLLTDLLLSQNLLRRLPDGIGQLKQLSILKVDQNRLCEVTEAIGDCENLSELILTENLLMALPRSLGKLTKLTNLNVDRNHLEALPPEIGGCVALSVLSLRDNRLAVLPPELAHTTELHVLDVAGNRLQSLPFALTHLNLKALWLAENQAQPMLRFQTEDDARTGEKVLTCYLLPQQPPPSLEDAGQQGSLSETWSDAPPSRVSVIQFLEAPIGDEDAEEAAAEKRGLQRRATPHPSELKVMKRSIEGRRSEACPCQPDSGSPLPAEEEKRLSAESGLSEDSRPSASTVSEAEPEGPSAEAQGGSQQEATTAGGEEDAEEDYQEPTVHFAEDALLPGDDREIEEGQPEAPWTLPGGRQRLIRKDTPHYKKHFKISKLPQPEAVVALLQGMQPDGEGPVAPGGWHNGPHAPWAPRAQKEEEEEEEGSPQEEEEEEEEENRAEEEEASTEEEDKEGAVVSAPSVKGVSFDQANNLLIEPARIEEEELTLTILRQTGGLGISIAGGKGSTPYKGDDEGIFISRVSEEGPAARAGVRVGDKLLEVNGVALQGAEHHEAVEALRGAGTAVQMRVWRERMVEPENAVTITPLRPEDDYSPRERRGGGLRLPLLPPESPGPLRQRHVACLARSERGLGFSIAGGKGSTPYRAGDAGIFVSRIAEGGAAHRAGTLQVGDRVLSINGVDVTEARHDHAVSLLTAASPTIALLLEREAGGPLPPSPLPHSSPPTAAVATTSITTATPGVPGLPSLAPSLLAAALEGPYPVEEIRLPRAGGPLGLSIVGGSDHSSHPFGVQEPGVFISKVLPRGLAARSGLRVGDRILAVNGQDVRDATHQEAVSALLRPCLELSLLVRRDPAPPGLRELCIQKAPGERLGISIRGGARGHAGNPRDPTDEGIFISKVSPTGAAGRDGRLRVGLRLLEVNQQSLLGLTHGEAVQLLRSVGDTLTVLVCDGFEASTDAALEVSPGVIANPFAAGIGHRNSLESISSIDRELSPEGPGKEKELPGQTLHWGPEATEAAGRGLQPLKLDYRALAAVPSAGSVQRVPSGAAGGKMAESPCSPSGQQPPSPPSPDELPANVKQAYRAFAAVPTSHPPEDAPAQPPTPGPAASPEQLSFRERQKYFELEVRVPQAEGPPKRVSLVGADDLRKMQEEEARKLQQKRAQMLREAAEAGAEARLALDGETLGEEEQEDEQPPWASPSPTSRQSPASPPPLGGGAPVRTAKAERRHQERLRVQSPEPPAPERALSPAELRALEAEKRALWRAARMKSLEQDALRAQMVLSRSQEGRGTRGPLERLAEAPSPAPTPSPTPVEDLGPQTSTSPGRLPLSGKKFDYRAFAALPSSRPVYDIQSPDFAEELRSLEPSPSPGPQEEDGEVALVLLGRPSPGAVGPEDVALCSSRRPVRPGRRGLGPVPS

Target: SCRIB PDZ domains (UniProt Q14160)
Experiment: ITC binding to the individual SCRIB PDZ domains (summary over PDZ1-4)
Parameters: species or system human

| SMILES | binding to SCRIB PDZ domains (in words) | binding to SCRIB PDZ domains (in words) (listed as KSEV) |
| --- | --- | --- |
| CSCC[C@H](NC(=O)[C@@H](N)CCCCN)C(=O)N[C@@H](C)C(=O)N[C@@H](CCCNC(=N)N)C(=O)N[C@H](C(=O)N[C@@H](C)C(=O)N[C@@H](CCCNC(=N)N)C(=O)N[C@@H](CO)C(=O)N[C@@H](CCCCN)C(=O)N[C@H](C(=O)O)C(C)C)[C@@H](C)O | no binding | – |
| CC[C@H](C)[C@H](NC(=O)[C@@H](NC(=O)[C@H](CCCNC(=N)N)NC(=O)[C@H](C)NC(=O)[C@H](CCSC)NC(=O)[C@@H](N)CCCCN)[C@@H](C)O)C(=O)N[C@@H](CCCCN)C(=O)N[C@@H](CO)C(=O)N[C@@H](CCC(=O)O)C(=O)N[C@H](C(=O)O)C(C)C | – | no binding |
| CC[C@H](C)[C@H](NC(=O)[C@@H](NC(=O)[C@H](CCCNC(=N)N)NC(=O)[C@H](CCC(=O)O)NC(=O)[C@H](CCSC)NC(=O)[C@@H](N)CCCCN)[C@@H](C)O)C(=O)N[C@@H](CCC(=O)O)C(=O)N1CCC[C@H]1C(=O)N[C@@H](CCC(=O)O)C(=O)N[C@H](C(=O)O)C(C)C | did not bind | – |
| CC[C@H](C)[C@H](NC(=O)[C@@H](NC(=O)CNC(=O)[C@H](C)NC(=O)[C@H](CCSC)NC(=O)[C@@H](N)CCC(=O)O)[C@@H](C)O)C(=O)N[C@@H](CCCNC(=N)N)C(=O)N[C@@H](CO)C(=O)N[C@@H](CCC(=O)O)C(=O)N[C@H](C(=O)O)C(C)C | no binding | – |

Where two headings read alike, the source gives them in different places. Structures were worked out from names or drawings and are uncertain.
